Pooled drug test results. Numbers come from NIAID ChemDB, via PubChem.

Shared fields: target-level tests; organism: Pneumocystis carinii; target: Dihydrofolate reductase; endpoint: IC50

ICn: concentration for n% inhibition. Two numbers with a dash give a range or band. Neighbouring rows are from separate reports.

SMILES | result
COc1cccc2c1C(OC)CN2Cc1cnc2nc(N)nc(N)c2c1C | 0.41 µM
COc1cc2c(cc1OC)-c1c(N)nc(N)nc1C2 | >58 µM
COc1cc(C2Cc3cnc4nc(N)nc(N)c4c3C2)cc(OC)c1OC | 12.6 µM
Cc1c(CNc2ccc(C(=O)NC(CC(=O)O)CC(=O)O)cc2)ccc2nc(N)nc(N)c12 | 0.00022 µM
Nc1nc(N)c2nc(CN3c4ccccc4CCc4ccccc43)cnc2n1 | 1.4 µM
Cc1c(CNc2ccc(Cl)c(C(=O)NC(CC(=O)O)C(=O)O)c2)ccc2nc(N)nc(N)c12 | 0.0054 µM
Nc1nc(N)c2c(Cl)cccc2n1 | 0.28–3.6 µM
Nc1nc(N)c2cc(C(=O)O)ccc2n1 | >32 µM
Nc1nc(N)c2c(ccc3c(Cl)c(Cl)ccc32)n1 | 1 µM
CCc1nc(N)nc(N)c1-c1ccc(Cl)c([N+](=O)[O-])c1 | 0.19–10.6 µM
CN(Cc1cnc2nc(N)nc(N)c2n1)c1ccc(C(=O)N[C@@H](CCC(=O)N[C@@H](CCC(=O)N[C@@H](CCC(=O)O)C(=O)O)C(=O)O)C(=O)O)cc1 | 0.0002 µM
COc1cc(CN2C=c3c(c4c([nH]c3=O)=NC(=N)N=C4N)C2)cc(OC)c1OC | 3.1 µM
Nc1nc(N)c2c(ccc3cc(Br)ccc32)n1 | 3.5–4.1 µM
N#CCc1nc(N)nc(N)c1-c1ccc(Cl)cc1 | 490 µM
Nc1nc(N)c2c(ccc3c2ccn3Cc2ccccc2)n1 | >3.1 µM
CN(Cc1cnc2nc(N)nc(N)c2n1)c1c(F)cc(C(=O)N[C@H](CCC(=O)O)C(=O)O)cc1F | 0.00051 µM
Nc1nc(N)c2c(n1)Cc1ccc(Cl)cc1-2 | 5.6 µM
Nc1nc(N)c2cc(CNc3ccc(C(=O)NC(CCC(=O)O)C(=O)O)c4ccccc34)cnc2n1 | 0.00053 µM
Nc1nc(N)c2nc(CN3c4ccccc4C=Cc4ccccc43)cnc2n1 | 0.21 µM
CCc1nc(N)nc(N)c1-c1ccc(Cl)c(Cl)c1 | 1.08 µM
Nc1nc(N)c2c(ccc3ccc(Cl)cc32)n1 | 3.5–4.1 µM